Test results reported in the NIST ThermoML archive (doi:10.1016/j.jct.2018.07.024).
Numbers after ± are expanded uncertainties.

Test: activity coefficient (dimensionless); xn = mol fraction of the nth substance listed
Details: 101.33 kPa, Liquid, Chromatography, x1 = 0

Structure (SMILES) | activity coefficient (318.15 K) | activity coefficient (328.15 K) | activity coefficient (338.15 K) | activity coefficient (348.15 K) | activity coefficient (358.15 K) | activity coefficient (368.15 K)
Cc1ccccc1C [1,2-dimethylbenzene] + CCCCCCCC[N+](CC)(CC)CC.O=S(=O)(F)[N-]S(=O)(=O)F | 0.992 ± 0.062 | 1.06 ± 0.07 | 1.13 ± 0.07 | 1.2 ± 0.08 | 1.27 ± 0.08 | 1.35 ± 0.09
Cc1ccccc1C [1,2-dimethylbenzene] + CCCC[N+]1(C)CCCC1.O=S(=O)(F)[N-]S(=O)(=O)F | 1.85 ± 0.12 | 1.96 ± 0.13 | 2.08 ± 0.14 | 2.19 ± 0.15 | 2.31 ± 0.16 | 2.42 ± 0.16
Cc1cccc(C)c1 [1,3-dimethylbenzene] + CCCCCCCC[N+](CC)(CC)CC.O=S(=O)(F)[N-]S(=O)(=O)F | 1.11 ± 0.07 | 1.19 ± 0.08 | 1.27 ± 0.08 | 1.35 ± 0.09 | 1.43 ± 0.09 | 1.52 ± 0.1
Cc1cccc(C)c1 [1,3-dimethylbenzene] + CCCC[N+]1(C)CCCC1.O=S(=O)(F)[N-]S(=O)(=O)F | 2.11 ± 0.14 | 2.25 ± 0.15 | 2.4 ± 0.16 | 2.54 ± 0.17 | 2.68 ± 0.18 | 2.83 ± 0.19
Cc1ccc(C)cc1 [1,4-dimethylbenzene] + CCCCCCCC[N+](CC)(CC)CC.O=S(=O)(F)[N-]S(=O)(=O)F | 1.1 ± 0.07 | 1.18 ± 0.08 | 1.26 ± 0.08 | 1.34 ± 0.09 | 1.43 ± 0.09 | 1.51 ± 0.1
Cc1ccc(C)cc1 [1,4-dimethylbenzene] + CCCC[N+]1(C)CCCC1.O=S(=O)(F)[N-]S(=O)(=O)F | 2.07 ± 0.14 | 2.22 ± 0.15 | 2.36 ± 0.16 | 2.5 ± 0.17 | 2.64 ± 0.18 | 2.77 ± 0.19
C1COCCO1 [1,4-dioxane] + CCCCCCCC[N+](CC)(CC)CC.O=S(=O)(F)[N-]S(=O)(=O)F | 0.56 ± 0.04 | 0.6 ± 0.042 | 0.642 ± 0.044 | 0.683 ± 0.046 | 0.724 ± 0.048 | 0.765 ± 0.05
C1COCCO1 [1,4-dioxane] + CCCC[N+]1(C)CCCC1.O=S(=O)(F)[N-]S(=O)(=O)F | 0.726 ± 0.048 | 0.783 ± 0.051 | 0.841 ± 0.054 | 0.899 ± 0.057 | 0.958 ± 0.06 | 1.02 ± 0.06
C=CCCCCCCCC [1-decene] + CCCCCCCC[N+](CC)(CC)CC.O=S(=O)(F)[N-]S(=O)(=O)F | 13.2 ± 0.9 | 13.2 ± 0.9 | 13.3 ± 0.9 | 13.3 ± 0.9 | 13.3 ± 0.9 | 13.4 ± 0.9
C=CCCCCCCCC [1-decene] + CCCC[N+]1(C)CCCC1.O=S(=O)(F)[N-]S(=O)(=O)F | 51.1 ± 3.5 | 49.7 ± 3.4 | 48.3 ± 3.3 | 47.1 ± 3.2 | 46.1 ± 3.2 | 45.1 ± 3.1
C=CCCCCC [1-heptene] + CCCCCCCC[N+](CC)(CC)CC.O=S(=O)(F)[N-]S(=O)(=O)F | 6.27 ± 0.43 | 6.37 ± 0.43 | 6.46 ± 0.44 | 6.55 ± 0.45 | 6.64 ± 0.45 | 6.71 ± 0.46
C=CCCCCC [1-heptene] + CCCC[N+]1(C)CCCC1.O=S(=O)(F)[N-]S(=O)(=O)F | 17.5 ± 1.2 | 17.5 ± 1.2 | 17.4 ± 1.2 | 17.4 ± 1.2 | 17.3 ± 1.2 | 17.3 ± 1.2
C#CCCCCC [1-heptyne] + CCCCCCCC[N+](CC)(CC)CC.O=S(=O)(F)[N-]S(=O)(=O)F | 2.36 ± 0.16 | 2.49 ± 0.17 | 2.62 ± 0.18 | 2.74 ± 0.19 | 2.88 ± 0.2 | 3 ± 0.2
C#CCCCCC [1-heptyne] + CCCC[N+]1(C)CCCC1.O=S(=O)(F)[N-]S(=O)(=O)F | 5.17 ± 0.35 | 5.4 ± 0.37 | 5.63 ± 0.38 | 5.86 ± 0.4 | 6.08 ± 0.41 | 6.31 ± 0.43
C#CCCCC [1-hexyne] + CCCCCCCC[N+](CC)(CC)CC.O=S(=O)(F)[N-]S(=O)(=O)F | 1.85 ± 0.12 | 1.96 ± 0.13 | 2.07 ± 0.14 | 2.19 ± 0.15 | 2.29 ± 0.16 | 2.4 ± 0.16
C#CCCCC [1-hexyne] + CCCC[N+]1(C)CCCC1.O=S(=O)(F)[N-]S(=O)(=O)F | 3.58 ± 0.24 | 3.79 ± 0.26 | 3.98 ± 0.27 | 4.19 ± 0.29 | 4.39 ± 0.3 | 4.59 ± 0.31
CCC[N+](=O)[O-] [1-nitropropane] + CCCCCCCC[N+](CC)(CC)CC.O=S(=O)(F)[N-]S(=O)(=O)F | 0.629 ± 0.043 | 0.657 ± 0.045 | 0.681 ± 0.046 | 0.708 ± 0.047 | 0.733 ± 0.049 | 0.758 ± 0.05

Structure (SMILES) | activity coefficient (318.15 K) | activity coefficient (328.15 K) | activity coefficient (338.15 K) | activity coefficient (348.15 K) | activity coefficient (358.15 K) | activity coefficient (368.15 K)
CCC[N+](=O)[O-] [1-nitropropane] + CCCC[N+]1(C)CCCC1.O=S(=O)(F)[N-]S(=O)(=O)F | 0.834 ± 0.054 | 0.873 ± 0.056 | 0.913 ± 0.058 | 0.952 ± 0.06 | 0.991 ± 0.062 | 1.03 ± 0.06
C#CCCCCCC [1-octyne] + CCCCCCCC[N+](CC)(CC)CC.O=S(=O)(F)[N-]S(=O)(=O)F | 3 ± 0.2 | 3.16 ± 0.22 | 3.31 ± 0.23 | 3.47 ± 0.24 | 3.61 ± 0.25 | 3.76 ± 0.26
C#CCCCCCC [1-octyne] + CCCC[N+]1(C)CCCC1.O=S(=O)(F)[N-]S(=O)(=O)F | 7.35 ± 0.5 | 7.61 ± 0.52 | 7.86 ± 0.54 | 8.11 ± 0.55 | 8.35 ± 0.57 | 8.6 ± 0.59
C=CCCC [1-pentene] + CCCCCCCC[N+](CC)(CC)CC.O=S(=O)(F)[N-]S(=O)(=O)F | 4.01 ± 0.27 | 4.08 ± 0.28 | 4.13 ± 0.28 | 4.2 ± 0.29 | 4.25 ± 0.29 | 4.31 ± 0.29
C=CCCC [1-pentene] + CCCC[N+]1(C)CCCC1.O=S(=O)(F)[N-]S(=O)(=O)F | 8.98 ± 0.61 | 9.12 ± 0.62 | 9.26 ± 0.63 | 9.39 ± 0.64 | 9.51 ± 0.65 | 9.65 ± 0.66
C#CCCC [1-pentyne] + CCCCCCCC[N+](CC)(CC)CC.O=S(=O)(F)[N-]S(=O)(=O)F | 1.48 ± 0.1 | 1.57 ± 0.1 | 1.66 ± 0.11 | 1.76 ± 0.12 | 1.85 ± 0.12 | 1.95 ± 0.13
C#CCCC [1-pentyne] + CCCC[N+]1(C)CCCC1.O=S(=O)(F)[N-]S(=O)(=O)F | 2.6 ± 0.18 | 2.75 ± 0.19 | 2.9 ± 0.2 | 3.06 ± 0.21 | 3.22 ± 0.22 | 3.37 ± 0.23
CC(C)CC(C)(C)C [2,2,4-trimethylpentane] + CCCCCCCC[N+](CC)(CC)CC.O=S(=O)(F)[N-]S(=O)(=O)F | 12.5 ± 0.9 | 12.4 ± 0.8 | 12.3 ± 0.8 | 12.2 ± 0.8 | 12.1 ± 0.8 | 12 ± 0.8
CC(C)CC(C)(C)C [2,2,4-trimethylpentane] + CCCC[N+]1(C)CCCC1.O=S(=O)(F)[N-]S(=O)(=O)F | 42.3 ± 2.9 | 41.1 ± 2.8 | 40 ± 2.7 | 39 ± 2.7 | 38 ± 2.6 | 37.3 ± 2.6
CCC(C)(C)C [2,2-dimethylbutane] + CCCCCCCC[N+](CC)(CC)CC.O=S(=O)(F)[N-]S(=O)(=O)F | 9.3 ± 0.63 | 9.14 ± 0.62 | 9.04 ± 0.62 | 8.93 ± 0.61 | 8.83 ± 0.6 | 8.77 ± 0.6
CCC(C)(C)C [2,2-dimethylbutane] + CCCC[N+]1(C)CCCC1.O=S(=O)(F)[N-]S(=O)(=O)F | 25.8 ± 1.8 | 25.5 ± 1.7 | 25.1 ± 1.7 | 24.7 ± 1.7 | 24.4 ± 1.7 | 24.2 ± 1.7
CCOC(C)(C)C [2-ethoxy-2-methylpropane] + CCCCCCCC[N+](CC)(CC)CC.O=S(=O)(F)[N-]S(=O)(=O)F | 4.18 ± 0.28 | 4.3 ± 0.29 | 4.43 ± 0.3 | 4.55 ± 0.31 | 4.67 ± 0.32 | 4.79 ± 0.33
CCOC(C)(C)C [2-ethoxy-2-methylpropane] + CCCC[N+]1(C)CCCC1.O=S(=O)(F)[N-]S(=O)(=O)F | 8.58 ± 0.59 | 8.87 ± 0.61 | 9.16 ± 0.62 | 9.43 ± 0.64 | 9.73 ± 0.66 | 10 ± 0.7
CCC(C)(C)OC [2-methoxy-2-methylbutane] + CCCCCCCC[N+](CC)(CC)CC.O=S(=O)(F)[N-]S(=O)(=O)F | 2.53 ± 0.17 | 2.65 ± 0.18 | 2.76 ± 0.19 | 2.87 ± 0.2 | 2.99 ± 0.2 | 3.1 ± 0.21
CCC(C)(C)OC [2-methoxy-2-methylbutane] + CCCC[N+]1(C)CCCC1.O=S(=O)(F)[N-]S(=O)(=O)F | 4.93 ± 0.34 | 5.18 ± 0.35 | 5.44 ± 0.37 | 5.68 ± 0.39 | 5.94 ± 0.4 | 6.19 ± 0.42
COC(C)(C)C [2-methoxy-2-methylpropane] + CCCCCCCC[N+](CC)(CC)CC.O=S(=O)(F)[N-]S(=O)(=O)F | 1.98 ± 0.13 | 2.09 ± 0.14 | 2.2 ± 0.15 | 2.31 ± 0.16 | 2.42 ± 0.16 | 2.53 ± 0.17
